Laboratory results published in patent US7166435B2 (priority 2001, dated 2007).

System: influenza virus of the strain A/Sydney/5/97 (H3N2)
Assay: In vivo testing of antimicrobial spray in influenza-infected ferrets
Design: species or system ferret
Details: ferrets dosed five minutes before infection, then twice a day

CCOC(=O)C1=C[C@@H](OC(CC)CC)[C@H](NC(C)=O)[C@@H](N)C1 [Tamiflu ™, oseltamivir phosphate]
febrile illness: no febrile illness
inflammatory cell count: a reduction in inflammatory cell count rise
virus shedding: no virus shedding
weight loss: no weight loss
